In US20140329863A1 (priority 2011, published 2014):

The molecules below were run on PrP^Sc in dividing ScN2a-cl3 cells. Settings: cell viability potency over ELISA potency.
Assay type: cell-based, mouse

SMILES | Calcein/ELISA Ratio
CC(=O)c1ccc2c(c1)N(CCCN(C)C)c1ccccc1S2 [Acepromazine] | >1.44
Nc1c(/N=N/c2ccc(-c3ccc(/N=N/c4cc(S(=O)(=O)O)c5ccccc5c4N)cc3)cc2)cc(S(=O)(=O)O)c2ccccc12 [Congo Red] | >22
CN1C[C@H](C(=O)N[C@]2(C)O[C@@]3(O)[C@@H]4CCCN4C(=O)[C@H](Cc4ccccc4)N3C2=O)C[C@@H]2c3cccc4[nH]cc(c34)C[C@H]21 [Dihydroergotamine] | >1.55
CCOc1ccc(/N=N/c2ccc(N)cc2N)cc1 [Ethoxazine] | >2.1
COc1ccc2cc1Oc1ccc(cc1)C[C@H]1c3cc(c(OC)cc3CCN1C)Oc1c(OC)c(OC)cc3c1[C@H](C2)N(C)CC3 [Tetrandine] | 2.33
